{"source": "PubChem BioAssay AID504761 (Drosophila RNAi Screening Center, 2011)", "assay": "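Genome-wide fly cell screen for genes dengue virus requires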 (primary screen)", "system": "D.Mel-2 cells from Drosophila", "knock-down reagent": "long dsRNA against Drosophila genes", "treatment": "infection with dengue virus type 2; dose and infection time not stated", "read-out": "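Cells stained for dengue envelope protein and imaged; percent of infected cells per well on duplicate plates, ranked by infection, with stained nuclei counted for cell number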", "reading the numbers": "infection score: higher = more virus-infected cells; cell count: higher = more cells in the well", "active means": "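Very low infection ranking in both replicate wells (chance probability at most 0.065), then a retest showing infection dropped 1.5-fold or more at p below 0.05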", "meaning of the calls": "active = confirmed: knock-down lowers infection; inactive = not picked or not confirmed", "note": "In all, the deposit lists about 22,000 reagents; this is a random part of those that have a named target and a result. In the full data, 116 (0.52%) are marked active. 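Calls depend on retest data that are not deposited; infection was ranked per plate without normalising between plates; the unit of the infection score is not given.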 Raw values vary from plate to plate and are shown uncorrected. A number with no mark means an inactive call. The numbers tell different reagents against one gene apart. A plus sign joins genes that one reagent is predicted to hit. The record does not give: the amount of reagent, the time to read-out."}
{"Target gene": "Tap42", "reagent no.": 1, "infection score, replicate 1": 4.8, "infection score, replicate 2": 5.14, "cell count, replicate 1": 6057, "cell count, replicate 2": 6172}
{"Target gene": "Tap42", "reagent no.": 2, "infection score, replicate 1": 3.64, "infection score, replicate 2": 2.92, "cell count, replicate 1": 6133, "cell count, replicate 2": 5861}
{"Target gene": "glec", "reagent no.": 1, "infection score, replicate 1": 0.42, "infection score, replicate 2": 3.69, "cell count, replicate 1": 6855, "cell count, replicate 2": 6856}
{"Target gene": "glec", "reagent no.": 2, "infection score, replicate 1": 1.71, "infection score, replicate 2": 1.2, "cell count, replicate 1": 6538, "cell count, replicate 2": 6415}
{"Target gene": "CG32733 (retired record) + CG32797", "reagent no.": 1, "infection score, replicate 1": 0.89, "infection score, replicate 2": 0.03, "cell count, replicate 1": 6152, "cell count, replicate 2": 6214}
{"Target gene": "Calr", "reagent no.": 1, "infection score, replicate 1": 2.42, "infection score, replicate 2": 5.32, "cell count, replicate 1": 5790, "cell count, replicate 2": 5510}
{"Target gene": "Calr", "reagent no.": 2, "infection score, replicate 1": 10.8, "infection score, replicate 2": 9.37, "cell count, replicate 1": 5779, "cell count, replicate 2": 5487}
{"Target gene": "SCOT", "reagent no.": 1, "infection score, replicate 1": 12.4, "infection score, replicate 2": 5.75, "cell count, replicate 1": 6639, "cell count, replicate 2": 6347}
{"Target gene": "SCOT", "reagent no.": 2, "infection score, replicate 1": 2.63, "infection score, replicate 2": 6.49, "cell count, replicate 1": 6271, "cell count, replicate 2": 5518}
{"Target gene": "PIG-H", "reagent no.": 1, "infection score, replicate 1": 7.72, "infection score, replicate 2": 22, "cell count, replicate 1": 6429, "cell count, replicate 2": 5632}
{"Target gene": "CG13339", "reagent no.": 1, "infection score, replicate 1": 3.5, "infection score, replicate 2": 5.72, "cell count, replicate 1": 6349, "cell count, replicate 2": 6175}
{"Target gene": "scrib", "reagent no.": 1, "infection score, replicate 1": 1.01, "infection score, replicate 2": 0.17, "cell count, replicate 1": 6042, "cell count, replicate 2": 6045}
{"Target gene": "scrib", "reagent no.": 2, "infection score, replicate 2": 3.19, "cell count, replicate 1": 105, "cell count, replicate 2": 6452}
{"Target gene": "scrib", "reagent no.": 3, "infection score, replicate 1": 3.11, "infection score, replicate 2": 1.59, "cell count, replicate 1": 5169, "cell count, replicate 2": 757}
{"Target gene": "scrib", "reagent no.": 4, "infection score, replicate 1": 4.06, "infection score, replicate 2": 5.98, "cell count, replicate 1": 6239, "cell count, replicate 2": 5870}
{"Target gene": "CG17344", "reagent no.": 1, "infection score, replicate 1": 6.7, "infection score, replicate 2": 5.42, "cell count, replicate 1": 6181, "cell count, replicate 2": 6718}
{"Target gene": "BtbVII", "reagent no.": 1, "infection score, replicate 1": 0.41, "infection score, replicate 2": 2.29, "cell count, replicate 1": 5815, "cell count, replicate 2": 5891}
{"Target gene": "BtbVII", "reagent no.": 2, "infection score, replicate 1": 10.7, "infection score, replicate 2": 7.22, "cell count, replicate 1": 7226, "cell count, replicate 2": 7440}
{"Target gene": "BtbVII", "reagent no.": 3, "infection score, replicate 1": 6.24, "infection score, replicate 2": 8.86, "cell count, replicate 1": 6381, "cell count, replicate 2": 5600}
{"Target gene": "Phyhd1", "reagent no.": 1, "infection score, replicate 1": 7.92, "infection score, replicate 2": 1.81, "cell count, replicate 1": 2627, "cell count, replicate 2": 609}
{"Target gene": "Phyhd1", "reagent no.": 2, "infection score, replicate 1": 3.48, "infection score, replicate 2": 8.62, "cell count, replicate 1": 6400, "cell count, replicate 2": 6546}
{"Target gene": "Pex16", "reagent no.": 1, "infection score, replicate 1": 7.89, "infection score, replicate 2": 14, "cell count, replicate 1": 1584, "cell count, replicate 2": 5996}
{"Target gene": "Nmd3", "reagent no.": 1, "infection score, replicate 1": 5.8, "infection score, replicate 2": 12, "cell count, replicate 1": 1121, "cell count, replicate 2": 2796}
{"Target gene": "Nmd3", "reagent no.": 2, "infection score, replicate 1": 3.13, "infection score, replicate 2": 11.7, "cell count, replicate 1": 5823, "cell count, replicate 2": 6135}
{"Target gene": "Eig71Ef", "reagent no.": 1, "infection score, replicate 1": 1.32, "infection score, replicate 2": 2.12, "cell count, replicate 1": 5894, "cell count, replicate 2": 6189}
{"Target gene": "CG11099", "reagent no.": 1, "infection score, replicate 1": 2.98, "infection score, replicate 2": 2.78, "cell count, replicate 1": 5645, "cell count, replicate 2": 6182}
{"Target gene": "l(3)73Ah", "reagent no.": 1, "infection score, replicate 1": 5.58, "infection score, replicate 2": 3.56, "cell count, replicate 1": 5790, "cell count, replicate 2": 6297}

Sorted by “infection score, replicate 2” (ascending): 3 of the entries above
{"Target gene": "Phyhd1", "reagent no.": 1, "infection score, replicate 1": 7.92, "infection score, replicate 2": 1.81, "cell count, replicate 1": 2627, "cell count, replicate 2": 609}
{"Target gene": "Phyhd1", "reagent no.": 2, "infection score, replicate 1": 3.48, "infection score, replicate 2": 8.62, "cell count, replicate 1": 6400, "cell count, replicate 2": 6546}
{"Target gene": "Pex16", "reagent no.": 1, "infection score, replicate 1": 7.89, "infection score, replicate 2": 14, "cell count, replicate 1": 1584, "cell count, replicate 2": 5996}
